# Read-outs that look alike come from different tables or passages of the source. *1 amine or outer side, *2 acyl side, *3 side chain or, on linkers, in order; H or OH if unused. Where a SMILES comes first, the peptide text is derived from it. Bridges are numbered along the chain shown (N, C = ends). Roman numbers before positions name the chains, in order. [ ]: non-standard residue; d: D form. The star is where a group is joined. ξ: configuration not given here. X3 = CN(C)c1ccc2c(-c3cc(NC(=S)*)ccc3C(=O)[O-])c3ccc(=[N+](C)C)cc-3oc2c1; X1 = CCCCCCCC/C=C\CCCCCCCC(=O)OC[C@](C)(O)C[C@H](N[*:1])C(=O)[*:2]; Trp(2-yl) = O=C([C@H](Cc1c([*:3])[nH]c2ccccc12)N[*:1])[*:2]; ξTrp(2-yl) = O=C(C(Cc1c([*:3])[nH]c2ccccc12)N[*:1])[*:2]; Leu(4R-OH,5-OH) = C[C@](O)(CO)C[C@H](N)C(=O)O; X2 = CC1(CC(N[*:1])C(=O)[*:2])SCC(CN[*:3])S1; X4 = CC(O)(CN[*:3])CC(N[*:1])C(=O)[*:2]; cisHyp = O=C(O)[C@@H]1C[C@H](O)CN1; Hyp = O=C(O)[CH]1C[CH](O)CN1; X5 = O=C(CCS[*:1])[*:2]; ξHyp = O=C(O)C1CC(O)CN1; ξT = CC(O)C(N)C(=O)O; ξC = NC(CS)C(=O)O; ξA = CC(N)C(=O)O
# Tests used:
# α-actin = α-actin (Oryctolagus cuniculus, UniProt P68135); assay type: binding, rabbit
# Jurkat cells [1] = settings: read-out: IC50 values Jurkat cells
# Daudi cells = experiment: cells; assay type: cell-based, human; settings: read-out: IC50 values Daudi cells
# K562 cells = experiment: cells; assay type: cell-based, human; settings: read-out: IC50 values K562 cells
# cells = test system: cells; set-up: method as in earlier work; settings: flow cytometry ref 13; cited from earlier work
# Jurkat cells [2] = experiment: cells; settings: Homo sapiens, 72 h, read-out: IC50 values Jurkat cells
# HL-60 cells = experiment: cells; assay type: cell-based, human; settings: read-out: IC50 values HL-60 cells
# [3] = as compared to phalloidin, from concentrations for 50% substitution of [3H]-demethylphalloin
# [4] = cell growth inhibition, 72 h incubation, MTT
compound,measurement,setting,value
"CC(=O)N[C@@H](CSSCCC(=O)NCC(C)(O)CC1NC(=O)C2Cc3c([nH]c4ccccc34)SCC(NC(=O)C(C(C)O)NC(=O)C(C)NC1=O)C(=O)N1CC(O)CC1C(=O)NC(C)C(=O)N2)C(=O)NCC(=O)N[C@@H](Cc1ccc(O)cc1)C(=O)NCC(=O)N[C@@H](CCCNC(=N)N)C(=O)N[C@@H](CCCCN)C(=O)N[C@@H](CCCCN)C(=O)N[C@@H](CCCNC(=N)N)C(=O)N[C@@H](CCCNC(=N)N)C(=O)N[C@@H](CCC(N)=O)C(=O)N[C@@H](CCCNC(=N)N)C(=O)N[C@@H](CCCNC(=N)N)C(=O)N[C@@H](CCCNC(=N)N)C(=O)O (some centres unmarked) [2c, (2)-Tat-peptide]",Relative affinity to α-actin,α-actin; [3],3%
"CC(=O)N[C@@H](CSSCCC(=O)NCC(C)(O)CC1NC(=O)C2Cc3c([nH]c4ccccc34)SCC(NC(=O)C(C(C)O)NC(=O)C(C)NC1=O)C(=O)N1CC(O)CC1C(=O)NC(C)C(=O)N2)C(=O)NCC(=O)N[C@@H](CCCNC(=N)N)C(=O)N[C@@H](CCCNC(=N)N)C(=O)N[C@@H](CCCNC(=N)N)C(=O)N[C@@H](CCCNC(=N)N)C(=O)N[C@@H](CCCNC(=N)N)C(=O)N[C@@H](CCCNC(=N)N)C(=O)N[C@@H](CCCNC(=N)N)C(=O)N[C@@H](CCCNC(=N)N)C(=O)O (some centres unmarked) [2d, (2)-octarginine] (I: Ac-CGRRRRRRRR-OH / II: cyclo([ξTrp(2-yl)][X4][ξA][ξT][ξC][ξHyp][ξA]); linker I:1-II:2 via X5; thioether II:1-II:5)",Relative affinity to α-actin,α-actin; [3],2%
same,IC50,Jurkat cells [1]; [4],7 µM
"CC1NC(=O)C(CC2(C)SCC(CNC(=S)Nc3ccc(C(=O)[O-])c(-c4c5ccc(=[N+](C)C)cc-5oc5cc(N(C)C)ccc45)c3)S2)NC(=O)C2Cc3c([nH]c4ccccc34)SCC(NC(=O)C(C(C)O)NC1=O)C(=O)N1CC(O)CC1C(=O)NC(C)C(=O)N2 (centres unmarked) [compound 3, dithiolanoaminophalloidin TRITC labeled] (cyclo([ξTrp(2-yl)][X2](X3)ATC[Hyp]A); thioether 1-5; configuration not given here)",Relative affinity to α-actin,α-actin,25%
"C[C@@H]1NC(=O)[C@H](C[C@@](C)(O)CO)NC(=O)[C@@H]2Cc3c([nH]c4ccccc34)SC[C@H](NC(=O)[C@@H]([C@H](C)O)NC1=O)C(=O)N1C[C@@H](O)C[C@H]1C(=O)N[C@@H](C)C(=O)N2 [compound 1, phalloidin, reference compound] (cyclo(A[dT]C[cisHyp]A[Trp(2-yl)][Leu(4R-OH,5-OH)]); thioether 3-6)",Relative affinity to α-actin,α-actin; [3],100%
same,IC50,"Daudi cells; Homo sapiens, Daudi, 72 h",> 1000 µM
same,IC50,"K562 cells; Homo sapiens, K562, 72 h",> 1000 µM
same,apoptosis (annexin fluorescence distribution),cells,indistinguishable from controls
same,IC50,Jurkat cells [2],~1000 µM
same,IC50,"HL-60 cells; Homo sapiens, HL-60, 72 h",> 1000 µM
aminophalloidin [compound 2],Relative affinity to α-actin,α-actin; [3],2%
same,IC50,Jurkat cells [1]; [4],~1000 µM
same,IC50,Daudi cells; [4],> 1000 µM
same,IC50,K562 cells; [4],> 1000 µM
same,IC50,HL-60 cells; [4],> 1000 µM
"CCCCCCCC/C=C\CCCCCCCC(=O)OC[C@](C)(O)C[C@@H]1NC(=O)[C@@H]2Cc3c([nH]c4ccccc34)SC[C@H](NC(=O)[C@@H]([C@H](C)O)NC(=O)[C@H](C)NC1=O)C(=O)N1C[C@@H](O)C[C@H]1C(=O)N[C@@H](C)C(=O)N2 [1e, (1)-oleate] (cyclo(A[dT]C[cisHyp]A[Trp(2-yl)][X1]); thioether 3-6)",Relative affinity to α-actin,α-actin,4%
same,IC50,Jurkat cells [1],2 µM
same,IC50,Daudi cells,4 µM
same,IC50,K562 cells,2 µM
same,IC50,HL-60 cells,3 µM
